Article PMC4422518, “Effects of 39 Compounds on Calmodulin-Regulated Adenylyl Cyclases AC1 and Bacillus anthracis Edema Factor” (2015)

Biological target: Bacillus anthracis edema factor (EF) (Bacillus anthracis) (UniProt P40136)

## calmodulin (CaM-wt) (from UniProt P62149 1-149) (natural protein)
  inhibition of CaM-stimulated AC activity of EF (0.1 uM CaM) by 10 uM penfluridol: 45 % inhibition
